pIC50: −log10 of the molar value.
Target: Human immunodeficiency virus type 1 reverse transcriptase (Human immunodeficiency virus 1, UniProt Q72547)
Assay: Inhibition of wild-type HIV-1 reverse transcriptase incubated for 1 hr in presence of biotin-dUTP by ELISA

With `Cc1cc(C#N)cc(C)c1Oc1nc(Nc2ccc(C#N)cc2)nc(N)c1Br` [ETRAVIRINE] the pIC50 was 7.54.

— ChEMBL document CHEMBL5614387, “Discovery of 2,4,6-trisubstituted pyrimidine derivatives as novel potent HIV-1 NNRTIs by exploiting the tolerant region II of the NNIBP” (Eur J Med Chem, 2024)
